## Results of single-concentration screens

Data taken from ChEMBL document CHEMBL3988442, “University of Dundee, Small-Polar-MMV Screening Library” (2021).

Each number is a percent effect as filed. The record does not define 0% and 100%; most values in the screen are far below 50% and negative numbers occur (in some assays of this library far below -100). Many other results are left out here, so strong results are more common than in the screen.

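Phenotypic screen: M. tuberculosis growth, glucose 7H9 medium, 3 days; the read-out is not stated. Tested at 500 µM. Higher reads as more growth inhibition (inferred: compounds with an IC50 in retests scored well above the rest). About 18,000 compounds were tested under these conditions; 7.9% (about 1,400) showed 50% or more at least once.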

N[C@H]1CCN(C(=O)CCc2cc(F)ccc2F)C1 gave 21.49%. CCCS(=O)(=O)NC1CCNC1 (stereo not shown) gave 3.397%. With CC(C)(O)CCc1ccc(CN2CCNC(=O)C2)cc1 the screen gave 30.07%. Cc1ccc(OCC(=O)NCC2CCCO2)nc1 (stereo not shown) gave -0.3679%. CC(C(=O)Nc1ccc(C(N)=O)cc1)N1CCCC1 (stereo not shown) gave -5.414%.

CCCS(=O)(=O)NCCOc1ccc(C#N)cc1 gave 62.88%. For C=C(C)COc1ccccc1CNCCNC(C)=O the result was 21.5%. With Cc1ccc(OC2CCN(C(=O)[C@@H](C)N)CC2)cc1 the screen gave 43.39%. For CCOC(=O)c1cc(NC(=O)C2CC2)c[nH]1 the result was 26.36%. NCc1noc(-c2cccs2)n1 read 19.49%.

Result for OCCN1CCN(c2ccc(CO)nn2)CC1 was -11.86%. NCCCn1nc2n(c1=O)CCCC2 read 8.941%. COc1ccc(-n2ccnc2SCC(=O)N(C)C)cc1 read 15.98%. Result for COc1ccc(NC(=O)N2CCN(C)CC2)cn1 was -2.539%. CCN(Cc1cnc(N)nc1)CC1CCOCC1 read -9.449%.

COc1cccc(OC(C)CN)c1 (stereo not shown) read 5.698%. Result for Cc1ccc(C(=O)C2CCN(S(C)(=O)=O)CC2)cc1 was -2.88%. Result for O=S(=O)(CCN1CCCC1)c1ccc(Cl)cc1 was 44.44%. With CCN(CC1CCOC1)S(=O)(=O)c1cnn(C)c1 (stereo not shown) the screen gave 4.672%. Cc1cc(CN)c(C)n1C gave 37.3%.

For N#CCOC(=O)CC(NC(N)=O)c1ccccc1 (stereo not shown) the result was 6.262%. With CC(=O)N1CCc2c(F)ccc(F)c2C1 the screen gave -0.3803%. For CC(C)(N)CN1CCN(c2cccc(Cl)c2)CC1 the result was 87.79%. COc1ccc(CNC(=O)CNC2CCCSC2)cc1 (stereo not shown) gave 67.93%. Result for CC(C)NC(=O)CN1c2cc(Cl)ccc2CS1(=O)=O was 4.31%.

N#Cc1cc(F)c(S(=O)(=O)NCCN)c(F)c1 gave 11.67%. For CS(=O)(=O)c1cccc(OCCN2CCCSCC2)c1 the result was 26.65%. Result for COc1ccc(CNC(=O)NCC2CC2)cn1 was 39.82%. With CSCC(=O)N1CC(C(N)=O)Oc2ccccc21 (stereo not shown) the screen gave 5.93%. With O=C(Nc1cccc(-n2cccn2)c1)N1CCSCC1 the screen gave 66.88%.

Result for CC(C)n1cc(NC(=O)c2cccnc2N(C)C)cn1 was 20.6%. For CC(C)c1ccc(NC(=O)CN)cc1 the result was 54.67%. For CCc1ccc(CN2CCN(C(=O)N(C)C)CC2)o1 the result was 60.27%. NC1CCN(c2ccccn2)C1 (stereo not shown) gave 13.69%. N#CCS(=O)(=O)N1CCCCC1 gave 6.028%.

For CCCc1noc(COc2ccccc2C(N)=O)n1 the result was 40.89%. CC(C)CNC(=O)c1[nH]cnc1C(=O)N1CCCCC1 read 15.82%. CCc1cccc2c1N(C(=O)CNC)CC2 gave 50.51%.

For reference, 5 entries once more:

compound,percent effect
CC(C)(O)CCc1ccc(CN2CCNC(=O)C2)cc1,30.07
O=C(Nc1cccc(-n2cccn2)c1)N1CCSCC1,66.88
Cc1ccc(C(=O)C2CCN(S(C)(=O)=O)CC2)cc1,-2.88
CC(C)(N)CN1CCN(c2cccc(Cl)c2)CC1,87.79
CS(=O)(=O)c1cccc(OCCN2CCCSCC2)c1,26.65